Molecular target: CapV (cGAMP activated phospholipase in Vibrio) (Vibrio cholerae, UniProt Q9KVG8)
Details: 250 nM enzyme, 0.025-2.5 μM nucleotide, room temperature; activator

Chains of the proteins cited; added tags and fusions are not shown.
UniProt Q9KVG8, whole entry: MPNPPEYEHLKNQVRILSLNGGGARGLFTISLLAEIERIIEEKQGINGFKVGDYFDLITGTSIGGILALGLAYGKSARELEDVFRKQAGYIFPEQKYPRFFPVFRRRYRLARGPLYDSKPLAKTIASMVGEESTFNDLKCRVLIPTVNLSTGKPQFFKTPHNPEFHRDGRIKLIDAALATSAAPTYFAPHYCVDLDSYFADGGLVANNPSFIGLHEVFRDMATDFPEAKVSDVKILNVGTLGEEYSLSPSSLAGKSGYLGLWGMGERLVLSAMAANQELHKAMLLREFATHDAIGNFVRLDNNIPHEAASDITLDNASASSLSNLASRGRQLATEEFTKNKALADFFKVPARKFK

Question: Which activation does the source give for `Nc1nc2c(ncn2[C@@H]2O[C@@H]3COP(=O)(O)O[C@H]4[C@@H](O)[C@H](n5cnc6c(N)ncnc65)O[C@@H]4COP(=O)(O)O[C@H]3[C@H]2O)c(=O)[nH]1` [3′3′ cGAMP] here?
Answer: The activation was “only activated by the nucleotide synthesized from their adjacently encoded nucleotidyltransferase”.

Source: publication PMC6544370 (Nature, 2019)
